For assay [1], the target named is NeoCoV RBD-hFc-twin-strep. The assay can be described thus: flow cytometry on cells.
The target of assay [2] is ACE2 from Pipistrellus pipistrellus (Ppip ACE2), Pipistrellus pipistrellus.
The target in assay [3] is Rsin ACE2-N55T, Rhinolophus sinicus.
The target of assay [4] is ACE2 from Pipistrellus pipistrellus (Ppip ACE2), Pipistrellus pipistrellus. This is another data set of the same source.
The target of assay [5] is Rsin ACE2-N55T, Rhinolophus sinicus. This is another data set of the same source.
Assay [6] has as its target Raeg ACE2-ABCD (Rousettus aegyptiacus).
For a further assay, the target named is NeoCoV RBD-hFc. Description: BLI. The following applies: ACE2 ectodomain at 500nM, 250nM, 125nM, 62.5nM, 31.25nM, 15.625nM.
In assay [7] the target is PDF-2180 RBD-hFc. Description: BLI. To be noted: ACE2 ectodomain at 500nM, 250nM, 125nM, 62.5nM, 31.25nM, 15.625nM; R2=0.9987.
Assay [8] deals with NeoCoV RBD-hFc-twin-strep.
Assay [9] deals with PDF-2180 RBD-hFc. The assay can be described thus: BLI (SSG: steady-state graph affinity determination). To be noted: ACE2 ectodomain at 500nM, 250nM, 125nM, 62.5nM, 31.25nM, 15.625nM; SSG R2=0.9691.

Where two headings read alike, the source gives them in different places.

Csim ACE2 N305E: the response in assay [1] (parent: 19.03 ± 1.19) turned out to be 73.2%.
Nasi ACE2 K305E: the response in assay [1] (parent: 6.37 ± 1.02) stood at 36.8%.
As to NeoCoV RBD-hFc, the koff was determined as 0.000104 s⁻¹ in assay [2] and 0.000812 s⁻¹ in assay [3]. Also, the Kd came out at 0.00178 µM in assay [4] and 0.0204 µM in [5].
PDF-2180 RBD-hFc: in assay [6], the dissociation constant Kd stood at 0.000694 µM and the koff came to 1.1e-05 s⁻¹.
As to Pcin ACE2 Q305E, the response in assay [1] (parent: 0.35 ± 0.07) came to 9.69%.
With “Raeg ACE2 I55T; K305E; E329N; K330N; D337S; N338D; D339G; Q340R”, the response in assay [1] (parent: 0) is 94.9%.
In the assay with NeoCoV RBD-hFc (R2=0.9978), “Raeg ACE2 ectodomain, WT I55T; K305E; E329N; K330N; D337S; N338D; D339G; Q340R” came in with a koff of 0.000138 S-1 and a kon of 5880 M/s. This substance also gave a koff with PDF-2180 RBD-hFc [7] of 1.1e-05 S-1.
In turn, Rsin ACE2 N55T gave a response in assay [8] of 99.7%.
For the substance Rsin ACE2 ectodomain, WT N55T, in the assay with NeoCoV RBD-hFc (R2=0.9995), the Kd stood at 0.0204 µM, the koff turned out to be 0.000812 S-1 and the kon turned out to be 39900 M/s. Besides, the Kd in the assay with PDF-2180 RBD-hFc [9] came out at 0.0141 µM.
Turning to Sape ACE2 Q305E, the response in assay [1] (parent: 0.04 ± 0.01) is 7.42%.
On to Sbol ACE2 R305E, for which the response in assay [1] (parent: 0.06 ± 0.01) stood at 0.29%.
As for Sscr ACE2 I305E, the response in assay [1] (parent: 52.17 ± 0.68) came out at 65.9%.

The record behind these values is publication PMC10272122, “Broad host tropism of ACE2-using MERS-related coronaviruses and determinants restricting viral recognition” (2023).
